B1: BD55-5550 (protein)
chain 1: EVQLVESGGNLVQPGGSLRLSCAASGFTFSRHAMHWVRQAPGKGLEYVSSISRDGGAKFYADSVKGRFTISRDNSKSTLSLQMGSLGAEDMAVYFCAREDLRSFDWSLDYWGQGTLVTVSS
chain 2: DIQMTQSPSSLSASVGDRVTITCRAGQSITTYLNWYQQKPGKAPKLLIYAASSLQSGVPSRFSGSGSGTDFTLTITNLQPEDFATYYCQQSYTSPMYTFGQGTKLEIK
B2: BD55-5517 (protein)
chain 1: EVQLVETGGGLIQPGGSLRLSCAASGFSVRSNYMTWVRQAPGKGLEWVSVIYSDGTTYYADSVKGRFTISRDNSKNTLYLQMNSLRAEDTAVYYCARVVSDAFDIWGQGTMVTVSS
chain 2: DIQMTQSPSTLSASVGDRVTITCRASQSLSRELAWYQQKPGKAPKLLIYMASILESGVPSRFSGSGSGTEFTLTISSLQPDDFATYYCQQYNRYSEMYTFGQGTKLEIK
B3: BD55-5502 (protein)
chain 1: EVQLVESGGGLVQPGGSLRLSCTASGFTFTTYAMHWVRQAPGKGLEFVSSITSDGGGAFYADSVEGRFTISRDNSKNTLYLQMGSLRTEDMAVYYCAREGPKIDVTLDYWGQGTLVTVSS
chain 2: DIQMTQSPSSLSASVGDRVTITCRASQSITKYLNWYQHKPGRPPKLLISGASSLQRGVPSRFSGSGSGTDFTLTISSLQPEDFATYYCQQSYSSPQYTFGQGTKLEIK
B4: BD55-5485 (protein)
chain 1: QITLSESGPTLVKPTQTLTLTCTFSGFSLSNIRVGVGWIRQPPGKALEWLALIYGDDDKRYSPSLKSRVTVTKDTSKNQVVLIMTNMDPVDTATYYCAHAAYGGSWHYLGFDSWGQGTLVTVSS
chain 2: QSLLTQPPSASGTPGQRVTISCSGSSSNIGNNPVNWYQQLPGTAPKLLIYIYNQRPSGVPDRFSGSKSGTSASLAISGLQSEDEADYYCAAWDDSLNGPVFGGGTKLTVL
B5: BD55-5540 (protein)
chain 1: QVQLVQSGAEVKKPGSSVKVSCQASGGTFSSYAIIWVRQAPGQGLEWMGGLIPIFGTTTNAQEFQGRVTLTADGVTDTAYMELRSLGSDDTAVYYCARSSHTSTWDPYLDHWGQGTLVIVSS
chain 2: QSVVTQPPSASGTPGQRVTVSCSGSSSNIGSNTVNWYQQVPGTAPKLLIYTNNQRPSGVPDRFSGSKSGTSASLAISGLQSEDEADYYCAAWDDSLNAVVFGGGTKLTVL
B6: BD55-5521 (protein)
chain 1: EVQLVESGGGLVQPGRSLRLSCAASGFTFEDYVIHWVRQPPGRGLEWVSRISWNSGIIDYADSVKGRFTISRDNAKNSLYLQMNSLRAEDTALYYCAKDMVVGYCSDGSCNDAFDVWGQGTMVTVSS
chain 2: QSVLTQPPSVSGAPGQRVTISCTGSSSNIGAGYDVHWYQKLPGTAPKLLIYGNSNRPSGVPDRFSGSKSGTSASLAITGLQADDEADYYCQSYDTSLSGRAMFGGGTKLTVL
B7: BD55-5579 (protein)
chain 1: EVQLVESGGGLVQPGGSLRLSCAASGFTFSSYPMHWVRQAPGKGLEYVSSITTDGGGAFYADSVKGRFTISRDNSKNTLYLQMGSLTVEDMAVYYCAREARGWSCYFDNWGQGTVVTVSS
chain 2: DIHMTQSPSSLSASVGDRVTITCRASQGISNSLAWYQQKPGKAPKLLLYAASRLESGVPSRFSGSGSGTDYTLTISSLQPEDFATYYCQQYYVTPMYTFGQGTKLEIK
B8: BD55-5493 (protein)
chain 1: QVQLQESGPGLVKPSETLSLTCTVSSGSIRGYYWSWIRQPPGKGLEWMAYVYSSGSTNYNPSLKSRLSISEDTTNNQFSLKLRSVTAADTAVYYCARHAFYYDSSGLRSHDNWFDSWGQGTRVTVSS
chain 2: DIQMTQSPSSVSASVGDRVTITCRASQGISNWLAWYQQKPGKAPKLLIYDISTLQNGVPSRFSGSGSGTDFTLTISSLQPEDFATYYCQQANSFPWTFGQGTKVEIK
B9: BD55-5566 (protein)
chain 1: EVQLVESGGGLVQPGRSLRLSCTVSGFTFGDHAMSWVRQAPGKGLEWVGFIRSKAFGGTTEYAASVRGRFTISRDDSKSIAYLQMISLKTADTGVYYCARDLTYGVYQYDSTVYFPGLDSWGQGALVTVSS
chain 2: DIVMTQTPLSLSVTPGQPASISCKSSQSLLHGDGKTYLYWYLQKAGQSPQLLIYEVSKRFSGVPDRFSGSGSGTDFTLKISRVEAEDVGVYYCMQSKQLRTFGQGTKVEIK
B10: BD55-5501 (protein)
chain 1: QVQLVQSGSELKRPGASVKVSCKASGYSFTSNAMNWVRQAPGQGLEWMGWINTETGSPTYAQGFTGRFVFSLDTSVRTAYLQISSLKAEDTAVYYCASNIRFGEYCFDPWGQGTLVTVS
chain 2: DIQMTQSPSSVSASVGDRVTITCRAGLHFSSWVAWYQQKPGKAPKLLIYATSSLQSGVPSRFSGSGSGTDFTLTISSLQPEDFATYYCQQGSTFPLTFGGGTKVEIK
B11: BD55-5558 (protein)
chain 1: QITLKESGPTLVKPKQTLTLTCTFSGFSLKKNGVGVGWIRQPPGKALEWLSLIYWDDTKRYTPSLKTRLTVTGDTSKNQVVLTLTNVDPVDTATYFCAHRPDLDSDLIVVDAFDMWGQGTMVTVSS
chain 2: QSVLTQPPSASGTPGQRVTISCSGSSSNIGRNTVNWYQHLPGTAPKLLIYHNNHRPSGVPDRFSGSKSGTSASLAISGLQSEDEADYYCETWDDSLGGVVFGAGTRLTVL
B12: BD55-5495 (protein)
chain 1: EVQLVVSGGGLVQPGGSLRLSCAASGFTFSSYDMHWVRQAKGKGLEWVSAIGTAGDTYYADSVKGRFTISRENARTSLYLQMSRLRDGDTAVYYCVRGDFDSSGFVGWFDPWGQGTLVAVSS
chain 2: DFQMTQSPSSLSASVGDRVTITCRASQYINNYLNWYQQKPGKAPKLLIYAASSLQSGVPSRFSGSGSGRDFTLTISSLQPEDFATYYCQQSYATPPWTFGPGTKVDIK

Human monoclonal antibodies against the spike receptor-binding domain (heavy:light variable regions). IC50 against pseudoviruses bearing the spike of naturally observed variants; lower = stronger; >10 µg/ml means not reached at the top dose. No active / inactive call. The stated detection limit is 0.0005 µg/ml; values near or below 0.001 µg/ml lie at the floor of the assay.

The results in this text go back to the supplement of paper PMC9931576.

The target in the first test is SARS-CoV-2 Omicron BA.1 spike pseudovirus. The experiment in a line: pseudovirus neutralization IC50; higher = weaker neutralization. The method, then: (§1)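 Single-round VSV luciferase pseudovirus mixed with antibody dilutions for 1 h and put on Huh-7 cells for about a day; IC50 from the dose curve.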
Turning to B1, the “pseudovirus neutralization IC50” value was greater than 10 mg/L.
On the same count and under the same terms, then B2, with 3.62 mg/L; and B3, with greater than 10 mg/L; and B4, with greater than 10 mg/L.
The same measure, in the same setting: for B5 the value was greater than 10 mg/L; for B6, greater than 10 mg/L; for B7, greater than 10 mg/L.
The same measure, in the same setting: for B8 the value was greater than 10 mg/L; for B9, greater than 10 mg/L; for B10, greater than 10 mg/L.
For B11, the “pseudovirus neutralization IC50” value stood at 0.016 mg/L.
For B12, the “pseudovirus neutralization IC50” value is greater than 10 mg/L.

Another test concerns the target SARS-CoV-2 Omicron BA.2 spike pseudovirus. Described as above. The method, then:
as §1
B1: the “pseudovirus neutralization IC50” value is greater than 10 mg/L.
Take B2: the “pseudovirus neutralization IC50” value was 7.38 mg/L.
Consider B3, for which the “pseudovirus neutralization IC50” value was greater than 10 mg/L.
Same read-out and setting: for B4 the value was greater than 10 mg/L.
Take B5: the “pseudovirus neutralization IC50” value was greater than 10 mg/L.
Same read-out and setting: then B6, with greater than 10 mg/L; and B7, with greater than 10 mg/L.
On to B8, for which the “pseudovirus neutralization IC50” value was greater than 10 mg/L.
Still for that read-out and setting: then B9, with greater than 10 mg/L; and B10, with greater than 10 mg/L; and B11, with greater than 10 mg/L.
The same measure, in the same setting: then B12, with greater than 10 mg/L.

A further test has as its target SARS-CoV-2 Omicron BA.2.75 spike pseudovirus. The description is as above. The method, then: as §1
As for B1, the “pseudovirus neutralization IC50” value was greater than 10 mg/L.
Still for that read-out and setting: for B2 the value was 4.06 mg/L.
Turning to B3, the “pseudovirus neutralization IC50” value was greater than 10 mg/L.
Still for that read-out and setting: then B4, with greater than 10 mg/L; and B5, with greater than 10 mg/L.
On the same count and under the same terms, then B6, with greater than 10 mg/L.
Still for that read-out and setting: then B7, with greater than 10 mg/L.
Turning to B8, the “pseudovirus neutralization IC50” value was greater than 10 mg/L.
For the molecule B9, the “pseudovirus neutralization IC50” value is greater than 10 mg/L.
Consider B10, for which the “pseudovirus neutralization IC50” value is greater than 10 mg/L.
On the same count and under the same terms, for B11 the value was greater than 10 mg/L; for B12, greater than 10 mg/L.

Another test addresses SARS-CoV-2 Omicron BA.5 spike pseudovirus. The test is described as above. The procedure:
as §1
For the molecule B1, the “pseudovirus neutralization IC50” value was greater than 10 mg/L.
On the same count and under the same terms, then B2, with 5.74 mg/L; and B3, with greater than 10 mg/L.
The same measure, in the same setting: then B4, with greater than 10 mg/L; and B5, with greater than 10 mg/L.
For the molecule B6, the “pseudovirus neutralization IC50” value is greater than 10 mg/L.
As for B7, the “pseudovirus neutralization IC50” value was greater than 10 mg/L.
In the case of B8, the “pseudovirus neutralization IC50” value is greater than 10 mg/L.
Still for that read-out and setting: then B9, with greater than 10 mg/L; and B10, with greater than 10 mg/L.
Turning to B11, the “pseudovirus neutralization IC50” value is greater than 10 mg/L.
As to B12, the “pseudovirus neutralization IC50” value was greater than 10 mg/L.

In a further test the target is SARS-CoV-2 Omicron BQ.1.1 spike pseudovirus. The description is as above. The method, then: as §1
On to B1, for which the “pseudovirus neutralization IC50” value is greater than 10 mg/L.
The same measure, in the same setting: for B2 the value was 4.61 mg/L; for B3, greater than 10 mg/L.
Still for that read-out and setting: for B4 the value was greater than 10 mg/L.
Still for that read-out and setting: then B5, with greater than 10 mg/L; and B6, with greater than 10 mg/L; and B7, with greater than 10 mg/L.
Turning to B8, the “pseudovirus neutralization IC50” value was greater than 10 mg/L.
Still for that read-out and setting: for B9 the value was greater than 10 mg/L.
In the case of B10, the “pseudovirus neutralization IC50” value was greater than 10 mg/L.
Consider B11, for which the “pseudovirus neutralization IC50” value is greater than 10 mg/L.
B12: the “pseudovirus neutralization IC50” value was greater than 10 mg/L.

The target of another test is SARS-CoV-2 Omicron XBB spike pseudovirus. Described as above. The procedure:
as §1
Turning to B1, the “pseudovirus neutralization IC50” value is greater than 10 mg/L.
For the molecule B2, the “pseudovirus neutralization IC50” value came to 7.21 mg/L.
In the case of B3, the “pseudovirus neutralization IC50” value was greater than 10 mg/L.
On the same count and under the same terms, then B4, with greater than 10 mg/L.
As to B5, the “pseudovirus neutralization IC50” value is greater than 10 mg/L.
On the same count and under the same terms, then B6, with greater than 10 mg/L.
On the same count and under the same terms, then B7, with greater than 10 mg/L; and B8, with greater than 10 mg/L.
Regarding B9, the “pseudovirus neutralization IC50” value was greater than 10 mg/L.
For the molecule B10, the “pseudovirus neutralization IC50” value was greater than 10 mg/L.
Take B11: the “pseudovirus neutralization IC50” value was greater than 10 mg/L.
On the same count and under the same terms, then B12, with greater than 10 mg/L.

Another test has as its target SARS-CoV-2 early D614G spike pseudovirus. The description is as above. The method, then:
as §1
As to B1, the “pseudovirus neutralization IC50” value was greater than 10 mg/L.
On the same count and under the same terms, for B2 the value was 2.16 mg/L.
B3: the “pseudovirus neutralization IC50” value is greater than 10 mg/L.
B4: the “pseudovirus neutralization IC50” value was greater than 10 mg/L.
On to B5, for which the “pseudovirus neutralization IC50” value was greater than 10 mg/L.
Turning to B6, the “pseudovirus neutralization IC50” value is 0.0807 mg/L.
As for B7, the “pseudovirus neutralization IC50” value is greater than 10 mg/L.
On the same count and under the same terms, for B8 the value was 0.119 mg/L.
As for B9, the “pseudovirus neutralization IC50” value came out at 0.0925 mg/L.
Regarding B10, the “pseudovirus neutralization IC50” value came out at 0.0228 mg/L.
Take B11: the “pseudovirus neutralization IC50” value was 0.0157 mg/L.
On to B12, for which the “pseudovirus neutralization IC50” value was found to be 1.31 mg/L.
